Bounds are passed on as bounds.

Protein sequences, listed by entry. Tags and fused reporters are not part of them. Residues count along the entry.
UniProt P27958, 1027-1657 limits assumed: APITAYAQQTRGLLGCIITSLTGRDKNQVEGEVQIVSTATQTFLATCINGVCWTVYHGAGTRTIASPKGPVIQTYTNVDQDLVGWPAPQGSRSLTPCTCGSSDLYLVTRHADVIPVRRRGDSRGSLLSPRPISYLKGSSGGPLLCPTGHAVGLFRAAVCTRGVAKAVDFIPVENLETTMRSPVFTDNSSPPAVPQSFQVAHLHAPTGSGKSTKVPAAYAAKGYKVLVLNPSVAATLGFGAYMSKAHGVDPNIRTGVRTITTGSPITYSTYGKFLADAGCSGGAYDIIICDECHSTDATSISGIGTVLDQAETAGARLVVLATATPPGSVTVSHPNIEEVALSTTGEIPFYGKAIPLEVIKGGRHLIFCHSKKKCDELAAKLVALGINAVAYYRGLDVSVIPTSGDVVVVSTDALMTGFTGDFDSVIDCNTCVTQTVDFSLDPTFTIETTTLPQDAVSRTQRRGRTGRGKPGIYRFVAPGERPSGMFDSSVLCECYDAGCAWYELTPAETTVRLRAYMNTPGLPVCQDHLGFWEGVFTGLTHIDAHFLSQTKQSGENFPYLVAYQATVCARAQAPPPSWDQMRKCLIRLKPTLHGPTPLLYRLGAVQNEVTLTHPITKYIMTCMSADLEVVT
UniProt P27958, 1658-1711 partner limits assumed: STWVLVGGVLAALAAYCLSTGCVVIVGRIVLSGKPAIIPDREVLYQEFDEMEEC

The experiment deals with Recombinant heterodimeric HCV NS3/NS4A protease (strain 1a) (Hepatitis C virus genotype 1a, UniProt P27958). Kind of experiment: Spectrophotometric assay for HCV protease inhibitory activity (chromogenic ester substrates). As to conditions: Table 2, Ki* range class. The text has this: The present invention relates to novel HCV protease inhibitors. This utility can be manifested in their ability to inhibit the HCV NS2/NS4a serine protease.
Assay for HCV Protease Inhibitory Activity:
Spectrophotometric Assay: Spectrophotometric assay for the HCV serine protease can be performed on the inventive compounds by following the procedure described by R. Zhang et al, Analytical Biochemistry, 270 (1999) 268-275, the disclosure of which is incorporated herein by reference. The assay based on the proteolysis of chromogenic ester substrates is suitable for the continuous monitoring of HCV NS3 protease activity. The substrates are derived from the P side of the NS5A-NS5B junction sequence (Ac-DTEDVVX(Nva), where X=A or P) whose C-terminal carboxyl groups are esterified with one of four different chromophoric alcohols (3- or 4-nitrophenol, 7-hydroxy-4-methyl-coumarin, or 4-phenylazophenol). Illustrated below are the synthesis, characterization and application of these novel spectrophotometric ester substrates to high throughput screening and detailed kinetic evaluation of HCV NS3 protease inhibitors.
Enzyme Preparation: Recombinant heterodimeric HCV NS3/NS4A protease (strain 1a) is prepared by using the procedures published previously (D. L. Sali et al, Biochemistry, 37 (1998) 3392-3401). Protein concentrations are determined by the Biorad dye method using recombinant HCV protease standards previously quantified by amino acid analysis. Prior to assay initiation, the enzyme storage buffer (50 mM sodium phosphate pH 8.0, 300 mM NaCl, 10% glycerol, 0.05% lauryl maltoside and 10 mM DTT) is exchanged for the assay buffer (25 mM MOPS pH 6.5, 300 mM NaCl, 10% glycerol, 0.05% lauryl maltoside, 5 μM EDTA and 5 μM DTT) utilizing a Biorad Bio-Spin P-6 prepacked column.
Protease Assay: HCV protease assays are performed at 30° C. using a 200 μl reaction mix in a 96-well microtiter plate. Assay buffer conditions (25 mM MOPS pH 6.5, 300 mM NaCl, 10% glycerol, 0.05% lauryl maltoside, 5 μM EDTA and 5 μM DTT) are optimized for the NS3/NS4A heterodimer (D. L. Sali et al, ibid.)). Typically, 150 μl mixtures of buffer, substrate and inhibitor are placed in wells (final concentration of DMSO≦4% v/v) and allowed to preincubate at 30° C. for approximately 3 minutes. Fifty μls of prewarmed protease (12 nM, 30° C.) in assay buffer, is then used to initiate the reaction (final volume 200 μl).The plates are monitored over the length of the assay (60 minutes) for change in absorbance at the appropriate wavelength (340 nm for 3-Np and HMC, 370 nm for PAP, and 400 nm for 4-Np) using a Spectromax Plus microtiter plate reader equipped with a monochrometer (acceptable results can be obtained with plate readers that utilize cutoff filters). Proteolytic cleavage of the ester linkage between the Nva and the chromophore is monitored at the appropriate wavelength against a no enzyme blank as a control for non-enzymatic hydrolysis. The evaluation of substrate kinetic parameters is performed over a 30-fold substrate concentration range (˜6-200 μM). Initial velocities are determined using linear regression and kinetic constants are obtained by fitting the data to the Michaelis-Menten equation using non-linear regression analysis (Mac Curve Fit 1.1, K. Raner). Turnover numbers (kcat) are calculated assuming the enzyme is fully active.
Evaluation of Inhibitors and Inactivators: The inhibition constants (Ki) for the competitive inhibitors Ac-D-(D-Gla)-L-I-(Cha)-C—OH (27), Ac-DTEDVVA(Nva)-OH and Ac-DTEDVVP(Nva)-OH are determined experimentally at fixed concentrations of enzyme and substrate by plotting vo/vi vs. inhibitor concentration ([I]o) according to the rearranged Michaelis-Menten equation for competitive inhibition kinetics: vo/vi=1+[I]o/(Ki(1+[S]o/Km)), where vo is the uninhibited initial velocity, vi is the initial velocity in the presence of inhibitor at any given inhibitor concentration ([I]o) and [S]o is the substrate concentration used.
For `C#CCCC(NC(=O)[C@@H]1[C@@H]2[C@H](CN1C(=O)[C@@H](NC(=O)N[C@H](COC(=O)NCC1CC1)C(C)(C)C)C1(C)CCCCC1)C2(C)C)C(=O)C(=O)NCCC` (stereo partly drawn) [Example 1117], the Ki (usually the equilibrium dissociation constant of an inhibitor or competing ligand from its target) lay within 75 to 250 nM.
To `CC(C)NC(=O)OC[C@@H](NC(=O)N[C@H](C(=O)N1C[C@H]2[C@@H]([C@H]1C(=O)NC(CC1CC1)C(=O)C(N)=O)C2(C)C)C(C)(C)C)C(C)(C)C` (stereo partly drawn) belongs over 250 nM; to `CC(C)(C)[C@@H](COC(=O)NCC1CC1)NC(=O)N[C@H](C(=O)N1C[C@H]2[C@@H]([C@H]1C(=O)NC(CCC1CC1)C(=O)C(=O)NC1CC1)C2(C)C)C1(C)CCCCC1` (single isomer, unassigned), under 75 nM.
With `CC(C)(C)[C@H](NC(=O)N[C@H](COC(=O)NCc1ccccc1)C(C)(C)C)C(=O)N1C[C@H]2[C@@H]([C@H]1C(=O)NC(CC1CC1)C(=O)C(N)=O)C2(C)C` (stereo partly drawn), the inhibitory constant (Ki) lay in the range of 75 to 250 nM.
Regarding `C=CCNC(=O)C(=O)C(CCC)NC(=O)[C@@H]1[C@@H]2[C@H](CN1C(=O)[C@@H](NC(=O)N[C@H](COC(=O)OCC1CC1)C(C)(C)C)C(C)(C)C)C2(C)C` (stereo partly drawn), the Ki was under 75 nM.
With `COC(=O)OC[C@@H](NC(=O)N[C@H](C(=O)N1C[C@H]2[C@@H]([C@H]1C(=O)NC(CC1CC1)C(=O)C(N)=O)C2(C)C)C(C)(C)C)C1CCCC1` (stereo partly drawn), the Ki was under 75 nM.

The record behind these values is US7425576B2, “Compounds as inhibitors of hepatitis C virus NS3 serine protease” (Schering Corporation, priority 2004, dated 2008).
